Anti-infective test results gathered from many reports (values: NIAID ChemDB through PubChem).

Shared fields: growth or infection tests; organism: Aspergillus flavus

Lines come from different laboratories, so protocols vary. MIC50, MIC90 and the like: level of inhibition, or share of isolates inhibited. Blank or dashed fields: not listed here.

compound,strain,read by,setting,read-out,value
COc1ccc(/C=c2\c(=O)[nH][nH]\c2=C2/C(=O)c3ccccc3N(C)C2=O)cc1,ATCC 28542,-,-,MIC,>100 µg/mL
c1coc(-c2n[nH]c(COc3ncnc4ccccc34)n2)c1,MTCC 277,-,-,MIC100,6.25 µg/mL
CCN1CCC(n2cc(-c3nc(-c4ccc(OC)cc4)n[nH]3)nn2)CC1,-,agar,-,MIC,70 µg/mL
CC(C)CC1NC(=O)CC(CCCCCCCCC(C)O)OC(=O)C(CC(C)C)NC(=O)C(CC(C)C)NC(=O)C(CC(C)C)NC(=O)C(C(C)C)NC(=O)C(CC(=O)O)NC(=O)C(CC(C)C)NC1=O,ATCC 11496,visual reading,-,MFC,16 µg/mL
COc1ccc(C2CC(Cc3ccc(CC(C)C)cc3)=Cc3[nH][nH]c(=O)c32)cc1,-,agar diffusion,-,MIC,50 µg/mL
Cc1ccc(-c2n[nH]c(COc3ncnc4ccccc34)n2)cc1,MTCC 277,-,-,MIC100,25 µg/mL
Cc1ccc(N=Cc2c(-c3c(O)c4ccccc4n(C)c3=O)[nH][nH]c2=O)cc1,ATCC 28542,-,-,MIC,25 µg/mL
Clc1ccc(C(c2ccccc2)n2ccnc2)cc1,-,broth dilution,-,MFC,0.5 µg/mL
CC1/C=C/C=C/C=C/C=C/C(O[C@@H]2O[C@H](C)[C@@H](O)[C@H](N)[C@@H]2O)CC2OC(O)(CC(O)CC(O)C/C=C/C(=O)OC1C)CC(O)C2C(=O)O,CGMCC 3.289,broth dilution,-,MIC100,6.25 µg/mL
c1csc(-c2n[nH]c(COc3ncnc4ccccc34)n2)c1,MTCC 277,-,-,MIC100,12.5 µg/mL
CCCCCOc1ccc(-c2cc(-c3ccc(C(=O)N[C@H]4C[C@@H](O)[C@@H](O)NC(=O)[C@@H]5[C@@H](O)[C@@H](C)CN5C(=O)[C@H]([C@H](O)CC(N)=O)NC(=O)[C@H]([C@H](O)[C@@H](O)c5ccc(O)c(OS(=O)(=O)O)c5)NC(=O)[C@@H]5C[C@@H](O)CN5C(=O)[C@H]([C@@H](C)O)NC4=O)cc3)no2)cc1,-,broth dilution,-,MIC50,0.03 µg/mL
CC(C)C[C@H](N)C(=O)O,MRCM 23135,broth dilution,-,MFC100,>18000 µg/mL
O=C(c1ccccc1)C(c1ccccc1)n1cnc2ccccc21,-,broth dilution,-,MFC,128 µg/mL
C[C@H]1[C@H](O)[C@@H](C)/C=C/C=C/C=C/C=C/C=C/C=C/C=C/[C@H](O[C@@H]2O[C@H](C)[C@@H](O)[C@H](N)[C@@H]2O)C[C@@H]2O[C@](O)(C[C@@H](O)C[C@@H](O)CC[C@H](O)[C@@H](O)C[C@@H](O)CC(=O)O[C@H]1C)C[C@H](O)[C@H]2C(=O)O,IAM 13835,-,-,MIC,0.39 µg/mL
Nc1ncccc1-c1cc(Cc2ccc(COc3ccccn3)cc2)no1,IFM50915,broth dilution,10% human serum,MIC50,0.25 µg/mL
CCN1CCC(n2cc(-c3nc(-c4ccccc4)n[nH]3)nn2)CC1,-,agar,-,MIC,40 µg/mL
O=c1c(N2CCOCC2)c(N2CCN(S(=O)(=O)Cc3ccccc3)CC2)cnn1-c1ccccc1,ND255,broth dilution,-,MIC,3.13 µg/mL
C[C@H]1[C@H](O)[C@@H](C)/C=C/C=C/C=C/C=C/C=C/C=C/C=C/[C@H](O[C@@H]2O[C@H](C)[C@@H](O)[C@H](N)[C@@H]2O)C[C@@H]2O[C@](O)(C[C@@H](O)C[C@@H](O)CC[C@H](O)[C@@H](O)C[C@@H](O)CC(=O)O[C@H]1C)C[C@H](O)[C@H]2C(=O)O,-,broth dilution / resazurin,-,MIC,0.98 µg/mL
Clc1ccc(C(c2ccccc2)n2cncn2)cc1,-,broth dilution,-,MFC,256 µg/mL
CCN=C1NN(C(=O)c2cc(=O)oc3cc(OCC)ccc23)C(c2cc3ccccc3oc2=O)=CS1,-,broth dilution,-,MIC50,0.01 µg/mL
CC(C)=CCC[C@@H](C)CC=O,TISTR 3041,broth dilution,-,MIC,4050 µg/mL
Cc1ccc(C2CC(Cc3ccc(CC(C)C)cc3)=Cc3[nH][nH]c(=O)c32)cc1,-,agar diffusion,-,MIC,50 µg/mL
COc1ccc(C(c2ccc(OC)cc2)n2cncn2)cc1,-,broth dilution,-,MFC,>256 µg/mL
CCC1/C=C/C=C/C=C/C=C/C(OC2OC(C)C(O)C(N)C2O)CC2OC(O)(CC(O)CC(O)C/C=C/C(=O)OC1C)CC(O)C2C(=O)O,CGMCC 3.289,broth dilution,-,MIC100,3.13 µg/mL
COc1cc(/C=C/C(C)=O)ccc1O,MTCC 277,broth dilution,-,MIC,963 µM
c1ccc(-c2n[nH]c(-c3cn(C4CCNCC4)nn3)n2)cc1,-,agar,-,MIC,40 µg/mL
CC(=O)N1CCN(c2ccc(OC[C@H]3CO[C@](Cn4ccnc4)(c4ccc(Cl)cc4Cl)O3)cc2)CC1,Species complex,-,-,MIC50,1 µg/mL
FC(F)(F)c1nc(OCc2nc(-c3ccccc3)n[nH]2)c2ccccc2n1,MTCC 277,-,-,MIC100,25 µg/mL
CN1C(=O)/C(=c2/[nH][nH]c(=O)/c2=C\c2ccc(Cl)cc2)C(=O)c2ccccc21,ATCC 28542,-,-,MIC,>100 µg/mL
c1ccc(C(c2ccccc2)n2ccnc2)cc1,-,broth dilution,-,MFC,0.5 µg/mL
c1ccc(-c2n[nH]c(COc3ncnc4ccccc34)n2)cc1,MTCC 277,-,-,MIC100,50 µg/mL
CCCCCCCCCCCCOC(=O)[C@]1(O)C[C@@H](O)[C@@H](O)[C@H](OC(=O)/C=C/c2ccc(O)c(O)c2)C1,AMP 9,absorbance,-,MIC80,>1500 µg/mL
Oc1ccc(-c2n[nH]c(COc3nc(C(F)(F)F)nc4ccccc34)n2)cc1,MTCC 277,-,-,MIC100,50 µg/mL
Clc1ccc(C(c2ccccc2)N2CCN(CCn3cncn3)CC2)cc1,-,broth dilution,-,MFC,>256 µg/mL
CCOC(=O)C1/C(=N/Nc2ccc([N+](=O)[O-])cc2[N+](=O)[O-])C=C(c2ccc3ccccc3c2)CC1c1cccc(Cl)c1,Clinical isolates,-,-,MIC,6.25 µg/mL
Clc1ccc(C(c2ccccc2)n2nnc3ccccc32)cc1,-,broth dilution,-,MFC,>256 µg/mL
CCOC(=O)C1/C(=N/Nc2ccc([N+](=O)[O-])cc2[N+](=O)[O-])C=C(c2ccc3ccccc3c2)CC1c1ccc(F)cc1,Clinical isolates,-,-,MIC,6.25 µg/mL
CC(C)Cc1ccc(CC2=Cc3[nH][nH]c(=O)c3C(c3ccccc3)C2)cc1,-,agar diffusion,-,MIC,100 µg/mL
O=C(c1ccccc1)C(c1ccccc1)n1cncn1,-,broth dilution,-,MFC,256 µg/mL
O=c1[nH][nH]c2c1C(c1ccc(Cl)cc1)CC(Cc1ccc3ccccc3c1)=C2,-,agar diffusion,-,MIC,200 µg/mL
CCN=C1NN(C(=O)c2cc(=O)oc3cc(OCC)ccc23)C(c2c(O)c3ccccc3oc2=O)=CS1,-,broth dilution,-,MIC50,1 µg/mL
CCCC[C@@H](C)/C=C(C)/C=C(\C)C(=O)N/C(=C/[C@@](C)(O)/C=C/C=C/C=C/C(=O)NC1=C(O)CCC1=O)C(=O)[C@@H]1CO1,1,broth dilution,-,MIC,200 µM
Cn1c(=O)c(-c2[nH][nH]c(=O)c2/C=N/c2ncccn2)c(O)c2ccccc21,ATCC 28542,-,-,MIC,>100 µg/mL
C[C@@H](c1ncncc1F)[C@](O)(Cn1cncn1)c1ccc(F)cc1F,CBS 625.66,broth dilution,-,MIC,0.5 µg/mL
Nc1[nH]c(=O)ncc1F,KCCM 11899,-,-,MIC,0.8 µg/mL
CCN=C1NN(C(=O)Cc2cc(=O)oc3cc(O)ccc23)C(c2c(O)c3ccccc3oc2=O)=CS1,-,broth dilution,-,MIC50,1 µg/mL
CC(=Nc1cccc2cccc(N=C(C)c3c(O)ccc4c(C)cc(=O)oc34)c12)c1c(O)ccc2c(C)cc(=O)oc12,MTCC 1883,-,-,MIC,10 µg/mL
CC(C)CC(O)C(=O)O,MRCM 23135,broth dilution / visual reading,-,MFC100,>72000 µg/mL
COc1ccccc1/C=c1\c(=O)[nH][nH]\c1=C1/C(=O)c2ccccc2N(C)C1=O,ATCC 28542,-,-,MIC,>100 µg/mL
CCOC(=O)C1/C(=N/Nc2ccc([N+](=O)[O-])cc2[N+](=O)[O-])C=C(c2ccc3ccccc3c2)CC1c1ccc(Br)cc1,Clinical isolates,-,-,MIC,6.25 µg/mL
CS(=O)(=O)N1CCC(n2cc(-c3nc(-c4ccc([N+](=O)[O-])cc4)n[nH]3)nn2)CC1,-,agar,-,MIC,40 µg/mL
CCOc1ccc2c(C(=O)N3NC(=NC)SC=C3c3cc4ccccc4oc3=O)cc(=O)oc2c1,-,broth dilution,-,MIC50,0.1 µg/mL
CCOC(=O)C1/C(=N/Nc2ccc([N+](=O)[O-])cc2[N+](=O)[O-])C=C(c2ccc3ccccc3c2)CC1c1ccccc1,Clinical isolates,-,-,MIC,200 µg/mL

7 of the rows above, restated:

O=C(c1ccccc1)C(c1ccccc1)n1cncn1 ; read by: broth dilution ; read-out: MFC ; value: 256 µg/mL
c1ccc(-c2n[nH]c(COc3ncnc4ccccc34)n2)cc1 ; strain: MTCC 277 ; read-out: MIC100 ; value: 50 µg/mL
CC(C)CC1NC(=O)CC(CCCCCCCCC(C)O)OC(=O)C(CC(C)C)NC(=O)C(CC(C)C)NC(=O)C(CC(C)C)NC(=O)C(C(C)C)NC(=O)C(CC(=O)O)NC(=O)C(CC(C)C)NC1=O ; strain: ATCC 11496 ; read by: visual reading ; read-out: MFC ; value: 16 µg/mL
CCOC(=O)C1/C(=N/Nc2ccc([N+](=O)[O-])cc2[N+](=O)[O-])C=C(c2ccc3ccccc3c2)CC1c1ccc(Br)cc1 ; strain: Clinical isolates ; read-out: MIC ; value: 6.25 µg/mL
Nc1[nH]c(=O)ncc1F ; strain: KCCM 11899 ; read-out: MIC ; value: 0.8 µg/mL
COc1ccc(/C=c2\c(=O)[nH][nH]\c2=C2/C(=O)c3ccccc3N(C)C2=O)cc1 ; strain: ATCC 28542 ; read-out: MIC ; value: >100 µg/mL
CC(C)=CCC[C@@H](C)CC=O ; strain: TISTR 3041 ; read by: broth dilution ; read-out: MIC ; value: 4050 µg/mL